PubChem BioAssay AID624099 – ICCB-Longwood – 2012
Screen: 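Host factors E2 relies on to silence an HPV18 LCR reporter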 (primary screen). Cells: human C33A cervical carcinoma cells (HPV-negative) stably expressing BPV1 E2 and an HPV18 LCR luciferase reporter. Reagents: siRNA pool against human genes, 40 nM. Timing: 72 h. Measured: 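Per-well luciferase luminescence, z-scored on each plate against the plate mean and SD with control wells left out, then averaged across three replicate plates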. Direction: mean z-score and z-score: higher = stronger reporter signal, weaker E2 silencing. Rule for the call: 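Hit if mean z-score reaches 2 and two or more of three replicate z-scores also reach 2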.
The deposit covers about 21,000 reagents; below is a part drawn at random. 497 of all reagents (2.4%) count as active. 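Higher z means weaker E2 silencing; only reporter increases were scored, and knock-downs that hurt cell survival may mask genuine repressor factors.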 Unmarked entries are inactive. The numbers tell different reagents against one gene apart. Reagent sequences are not shown.

TMSB4Y (GeneID 9087)
- mean z-score: 1.01
- z-score, replicate A: 1.06
- z-score, replicate B: 0.69
- z-score, replicate C: 1.28

APOA1 (GeneID 335)
- mean z-score: 0.09
- z-score, replicate A: 0.13
- z-score, replicate B: -0.09
- z-score, replicate C: 0.23

HABP2 (GeneID 3026)
- mean z-score: -2.4
- z-score, replicate A: -2
- z-score, replicate B: -2.79
- z-score, replicate C: -2.41

RHNO1 (GeneID 83695)
- mean z-score: -0.25
- z-score, replicate A: -0.28
- z-score, replicate B: -0.12
- z-score, replicate C: -0.34

TPTE2 (GeneID 93492)
- mean z-score: 2.19 (active)
- z-score, replicate A: 2.09
- z-score, replicate B: 2.12
- z-score, replicate C: 2.36

LOC400768 (retired record) (GeneID 400768)
- mean z-score: -0.01
- z-score, replicate A: 0.42
- z-score, replicate B: -0.09
- z-score, replicate C: -0.35

TRIM51BP (GeneID 399937)
- mean z-score: 1.67
- z-score, replicate A: 2.29
- z-score, replicate B: 1.72
- z-score, replicate C: 0.99

UNC13A (GeneID 23025)
- mean z-score: -1.39
- z-score, replicate A: -1.52
- z-score, replicate B: -1.45
- z-score, replicate C: -1.22

RPS3AP21 (GeneID 402287) #1
- mean z-score: 0.16
- z-score, replicate A: 0.14
- z-score, replicate B: -0.01
- z-score, replicate C: 0.35

RPS3AP21 (GeneID 402287) #2
- mean z-score: -0.16
- z-score, replicate A: -0.14
- z-score, replicate B: -0.14
- z-score, replicate C: -0.21

A run of entries of the results above, for reference:
TPTE2 (GeneID 93492)
- mean z-score: 2.19 (active)
- z-score, replicate A: 2.09
- z-score, replicate B: 2.12
- z-score, replicate C: 2.36

LOC400768 (retired record) (GeneID 400768)
- mean z-score: -0.01
- z-score, replicate A: 0.42
- z-score, replicate B: -0.09
- z-score, replicate C: -0.35

TRIM51BP (GeneID 399937)
- mean z-score: 1.67
- z-score, replicate A: 2.29
- z-score, replicate B: 1.72
- z-score, replicate C: 0.99

Continued.
RPL36AL (GeneID 6166)
- mean z-score: 0.25
- z-score, replicate A: 0.33
- z-score, replicate B: 0.35
- z-score, replicate C: 0.07

CLVS1 (GeneID 157807)
- mean z-score: 0.9
- z-score, replicate A: 0.59
- z-score, replicate B: 0.96
- z-score, replicate C: 1.15

ZBTB20 (GeneID 26137)
- mean z-score: -1.55
- z-score, replicate A: -1.63
- z-score, replicate B: -1.36
- z-score, replicate C: -1.65

LOC388519 (retired record) (GeneID 388519)
- mean z-score: -3.62
- z-score, replicate A: -3.91
- z-score, replicate B: -3.48
- z-score, replicate C: -3.46

JADE3 (GeneID 9767)
- mean z-score: -0.24
- z-score, replicate A: -0.19
- z-score, replicate B: -0.23
- z-score, replicate C: -0.3

MTMR10 (GeneID 54893)
- mean z-score: 1.31
- z-score, replicate A: 1.12
- z-score, replicate B: 1.57
- z-score, replicate C: 1.24

MAN1A2 (GeneID 10905)
- mean z-score: -0.44
- z-score, replicate A: -0.41
- z-score, replicate B: -0.45
- z-score, replicate C: -0.45

C3orf49 (GeneID 132200)
- mean z-score: -0.62
- z-score, replicate A: -0.53
- z-score, replicate B: -0.7

GAL3ST1 (GeneID 9514)
- mean z-score: -1.08
- z-score, replicate A: -1.14
- z-score, replicate B: -1.08
- z-score, replicate C: -1.03

LAMB4 (GeneID 22798)
- mean z-score: 0.19
- z-score, replicate A: -0.15
- z-score, replicate B: 0.21
- z-score, replicate C: 0.53

KCNV2 (GeneID 169522)
- mean z-score: -0.34
- z-score, replicate A: -0.57
- z-score, replicate B: -0.29
- z-score, replicate C: -0.15

KRT39 (GeneID 390792)
- mean z-score: 0.18
- z-score, replicate A: 0.53
- z-score, replicate B: 0
- z-score, replicate C: 0.02

ZNF185 (GeneID 7739)
- mean z-score: -0.63
- z-score, replicate A: -0.48
- z-score, replicate B: -0.77
- z-score, replicate C: -0.64

ARMC12 (GeneID 221481)
- mean z-score: 0.22
- z-score, replicate A: 0.09
- z-score, replicate B: 0.19
- z-score, replicate C: 0.39

ZNF575 (GeneID 284346)
- mean z-score: -0.35
- z-score, replicate A: -0.4
- z-score, replicate B: -0.15
- z-score, replicate C: -0.5

GSG1L (GeneID 146395)
- mean z-score: 0.12
- z-score, replicate A: -0.32
- z-score, replicate B: 0.09
- z-score, replicate C: 0.59

AFM (GeneID 173)
- mean z-score: 0.17
- z-score, replicate A: 0.52
- z-score, replicate B: 0.09
- z-score, replicate C: -0.08
